Test results taken from PubChem BioAssay (NCATS).
This is a selection; strong and weak results do not stand in their true shares. Results filed as inconclusive are left out. Active and inactive are the calls of the source. Calls follow the shape of the dose curve; as a rule, active = well fitted inhibition curve with a large enough effect; inconclusive = small, poorly fitted or top-dose-only effect; inactive = flat fitted curve, though single readings scatter.

How the values were obtained:
Assay in all cases: qHTS profiling for inhibitors of Plasmodium falciparum proliferation (AID 504749); also: nearly all actives have a fitted effect of over 60% in size;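 as to activity, negative = inhibition: 0% = DMSO vehicle and full inhibition = artemisinin control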
[1] = tested on: SC27B; settings: P. falciparum in erythrocytes, SYBR Green DNA, 72 h; at 28.7 µM (top of the series) unless noted
How it was run: (§1)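 Fluorescence of SYBR Green-bound parasite DNA, read at 485/535 nm, served as the growth measure. Infected erythrocytes were cultured with compound 72 h; artemisinin (0.29 uM) and DMSO wells defined the normalization range.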

[2] = tested on: TAB109; settings: P. falciparum in erythrocytes, SYBR Green DNA, 72 h; series mostly up to 28.7 µM
How it was run: as §1

[3] = tested on: TAB113; settings: P. falciparum in erythrocytes, SYBR Green DNA, 72 h; at 28.7 µM (top of the series) unless noted
How it was run: as §1

[4] = tested on: TAB165; settings: P. falciparum in erythrocytes, SYBR Green DNA, 72 h; at 28.7 µM (top of the series) unless noted
How it was run: as §1

[5] = tested on: W2; settings: P. falciparum in erythrocytes, SYBR Green DNA, 72 h; at 28.7 µM (top of the series) unless noted
How it was run: as §1
Potency is read from the fitted curve at half-maximal effect.

CC(C)OP(=O)(F)OC(C)C
inactive: activity, negative = inhibition [1] 1.32% | Potency [2] | activity, negative = inhibition [3] 22% | activity, negative = inhibition [4] -0.988%

O=[N+]([O-])c1cccc([N+](=O)[O-])c1
inactive: activity, negative = inhibition [1] 6.04% | Potency [2] | activity, negative = inhibition [3] 11.7% | activity, negative = inhibition [4] -0.0221% | activity, negative = inhibition [5] -10.6%

C/C1=C2N=C(/C=C3N=C(/C(C)=C4\[N-][C@@](C)([C@H]5N=C1[C@@](C)(CCC(=O)NC[C@H](C)OP(=O)([O-])O[C@@H]1[C@H](O)[C@H](n6cnc7cc(C)c(C)cc76)O[C@@H]1CO)[C@@H]5CC(N)=O)[C@](C)(CC(N)=O)[C@H]4CCC(N)=O)[C@@](C)(CC(N)=O)[C@@H]\3CCC(N)=O)C(C)(C)[C@@H]/2CCC(N)=O.[C-]#N.[Co+3]
inactive: activity, negative = inhibition [1] 2.19% [at 12.8 µM] | Potency [2] | activity, negative = inhibition [3] -3.5% [at 12.8 µM] | activity, negative = inhibition [4] 9.65% [at 12.8 µM] | activity, negative = inhibition [5] 0.456% [at 12.8 µM]

O=[N+]([O-])OCC(CO[N+](=O)[O-])(CO[N+](=O)[O-])CO[N+](=O)[O-]
inactive: activity, negative = inhibition [3] -2.73% | activity, negative = inhibition [4] -7.97%
active: Potency [2] 8.91 µM
